Data as given in article PMC4738285, “A novel Hsp70 inhibitor prevents cell intoxication with the actin ADP-ribosylating Clostridium perfringens iota toxin” (Scientific Reports, 2016).

The chains behind the UniProt entries cited, without tags or fusion partners.
UniProt P0DMV8, whole entry, looked up: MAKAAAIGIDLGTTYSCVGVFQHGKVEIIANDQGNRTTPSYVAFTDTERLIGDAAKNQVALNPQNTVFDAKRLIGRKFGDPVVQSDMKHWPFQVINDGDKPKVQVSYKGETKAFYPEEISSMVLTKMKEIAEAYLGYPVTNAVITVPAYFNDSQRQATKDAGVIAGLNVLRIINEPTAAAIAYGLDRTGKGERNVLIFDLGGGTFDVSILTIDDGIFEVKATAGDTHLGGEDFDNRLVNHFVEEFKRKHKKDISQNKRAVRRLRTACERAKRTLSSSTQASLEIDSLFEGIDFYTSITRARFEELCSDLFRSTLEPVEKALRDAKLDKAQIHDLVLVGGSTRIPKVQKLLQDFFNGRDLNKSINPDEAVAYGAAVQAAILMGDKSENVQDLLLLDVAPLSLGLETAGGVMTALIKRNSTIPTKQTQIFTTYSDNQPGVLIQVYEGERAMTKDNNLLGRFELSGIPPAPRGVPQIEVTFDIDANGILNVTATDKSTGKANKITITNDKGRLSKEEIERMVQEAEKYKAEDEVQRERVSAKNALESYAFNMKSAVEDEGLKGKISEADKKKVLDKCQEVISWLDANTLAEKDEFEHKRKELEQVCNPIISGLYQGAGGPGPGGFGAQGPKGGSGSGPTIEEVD

Target: Hsp70 (Homo sapiens, UniProt P0DMV8)
Experiment: Hsp70-assisted refolding of GdmCl-denatured firefly luciferase
Type: biochemical
Conditions: in words

With `CSc1ccc2c[n+]3ccccc3cc2c1` the “inhibition of the protein folding helper activity of Hsp70” value was “did not significantly inhibit”.
